The results in this text go back to PMC7157532.

Tags and fusion partners may be left off the protein sequences shown.

This data set addresses T1, MoMsn2 (UniProt G4NBR8).
T1 sequence (looked up): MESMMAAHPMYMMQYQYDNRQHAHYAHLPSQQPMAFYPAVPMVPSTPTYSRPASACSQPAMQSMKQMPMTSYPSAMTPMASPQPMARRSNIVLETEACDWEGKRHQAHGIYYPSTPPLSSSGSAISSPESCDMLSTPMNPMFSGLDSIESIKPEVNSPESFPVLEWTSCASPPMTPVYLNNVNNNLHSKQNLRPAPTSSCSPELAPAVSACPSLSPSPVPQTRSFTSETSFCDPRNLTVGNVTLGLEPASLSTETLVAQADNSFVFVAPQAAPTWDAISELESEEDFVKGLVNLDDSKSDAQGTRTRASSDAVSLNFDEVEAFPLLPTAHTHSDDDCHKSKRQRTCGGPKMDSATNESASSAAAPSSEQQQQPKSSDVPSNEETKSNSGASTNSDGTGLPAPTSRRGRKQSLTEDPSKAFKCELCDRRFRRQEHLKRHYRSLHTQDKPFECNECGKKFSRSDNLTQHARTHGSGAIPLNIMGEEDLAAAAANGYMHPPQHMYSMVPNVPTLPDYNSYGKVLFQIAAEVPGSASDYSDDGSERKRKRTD
As to the kind of experiment: EMSA. The note with it: recombinant protein, residues 1-548, probe letters rebuilt from the primers and the genome. A general note: In EMSA bound probe runs differently from free probe, usually more slowly.

With “GCGTCTGAGCTTGTGGTAAGCAACGGAAATGATCTGGCTGCAGATATAGGAACAAAGGCTTTAGCGGTAGCAATTGTTCAGGGGCCAAGCAAGCCTGGACCTGAGCTAAATCTGCACCAGTGAAGAGCTAATAGCTTCTTGATTCAGGAACTTAGTGTCTCCGTCGCCTAGCTGGTTGAAGATTTATTGATTTTCTACTGGGCCTAGCGTCGGCTGAGCATGAGGCCTACCATGGGCTTGACCATGTTACTCGGATGTGAGCTCGTCTTGGAGGAGCATCTGAGACTTGGCATTGCCTCACTTGCCATGCAGAGCCTTCACGGAAACGTCATTATGCGCCCCGGGCACATACTGTATACTCATGTTGTACTGGAGTCATCTGGCGCAGGGATAGATGCCAACAAGGCGAAATATATCAGGAGGACCCTACAATCCTGTTATGAGAAACGTGCCTGTTCCCTGAGAAGGTAAAAAAGAGGCTCCTCTGCCACCATCAAACAGTACTGGTTTCTGTGACGGTGTACTCATCTTATTCGCTCCCTGCCTATTGATCACACTCATTAAATTCTTATTTCTCAATCCTTCAATCCTCTTTACGAGAATCAATATCGTTCCTTACTTCCAACCCGAGGCAGTGCCGCCATCCGCCCTCCTAGACTAGTACTCCGCGTTCATTTCCACCTTAGGTGCCCCTCGGCAACTCAGGAGCCACTCATTTGCGATATACCATCCAGCTTTCTCTTCTAGCTTCTTCAGCTAAAAGGCTCGGATACTAGAAAAGCCCGTCCCTCTCTCTGCCCTGATTGCTGGAGCTGGACAGACCCAAGCATCTCGGCCATCACTCTCCTTAGCAGCATCGCCGCTTACACTCTCTTTACACACCTTTTCTTCTTCTTTTTTTTCTTTCTCACCAAGCTGAGCTTGCACTTTCCCTTCTTCTTAGCCTCTTCTTTTCACCAATTTCCAACCATAACA (double strand) [Alex 660-labeled MoAA91 promoter 1,000-bp DNA]”, for the setting “label: 5' Alex 660”, the binding result is “binds”.
Turning to “GCGTCTGAGCTTGTGGTAAGCAACGGAAATGATCTGGCTGCAGATATAGGAACAAAGGCTTTAGCGGTAGCAATTGTTCAGGGGCCAAGCAAGCCTGGACCTGAGCTAAATCTGCACCAGTGAAGAGCTAATAGCTTCTTGATTCAGGAACTTAGTGTCTCCGTCGCCTAGCTGGTTGAAGATTTATTGATTTTCTACTGGGCCTAGCGTCGGCTGAGCATGAGGCCTACCATGGGCTTGACCATGTTACTCGGATGTGAGCTCGTCTTGGAGGAGCATCTGAGACTTGGCATTGCCTCACTTGCCATGCAGAGCCTTCACGGAAACGTCATTATGCGCCCCGGGCACATACTGTATACTCATGTTGTACTGGAGTCATCTGGCGCAGGGATAGATGCCAACAAGGCGAAATATATCAGGAGGACCCTACAATCCTGTTATGAGAAACGTGCCTGTTCCCTGAGAAGGTAAAAAAGAGGCTCCTCTGCCACCATCAAACAGTACTGGTTTCTGTGACGGTGTACTCATCTTATTCGCTCCCTGCCTATTGATCACACTCATTAAATTCTTATTTCTCAATCCTTCAATCCTCTTTACGAGAATCAATATCGTTCCTTACTTCCAACCCGAGGCAGTGCCGCCATCCGCCCTCCTAGACTAGTACTCCGCGTTCATTTCCACCTTAGGTGCCCCTCGGCAACTCAGGAGCCACTCATTTGCGATATACCATCCAGCTTTCTCTTCTAGCTTCTTCAGCTAAAAGGCTCGGATACTAGAAAAGCCCGTCCCTCTCTCTGCCCTGATTGCTGGAGCTGGACAGACCCAAGCATCTCGGCCATCACTCTCCTTAGCAGCATCGCCGCTTACACTCTCTTTACACACCTTTTCTTCTTCTTTTTTTTCTTTCTCACCAAGCTGAGCTTGCACTTTCCCTTCTTCTTAGCCTCTTCTTTTCACCAATTTCCAACCATAACA (double strand) [MoAA91 promoter full-length / 1,000-bp DNA]”, the binding result was “binds”.
